Anti-infective test results gathered from many reports (values: NIAID ChemDB through PubChem).

Common to all: host cell toxicity; cell line: VERO; read-out: CC50

Lines come from different laboratories, so protocols vary.

| structure | read by | value |
|---|---|---|
| COc1ncnc2c1ncn2O[C@H]1CO[C@@H](CO)O1 | - | >100 µg/mL |
| CN(C)c1ccc(/C=N/NC(=O)CN2c3c(-c4ccccc4)n[nH]c3-c3ccccc3S2(=O)=O)cc1 | - | 14.6 µM |
| CC1(C)C[C@H]2[C@H](OC(=O)[C@H](O)[C@@H](NC(=O)c3ccccc3)c3ccccc3)C3=C(COC3=O)C[C@](C)(O)[C@H]2C1 | - | 107.9 µg/mL |
| C[C@H]1C[C@H]2O[C@@H]2C[C@H](O)/C=C/C(=O)Cc2c(Cl)c(O)cc(O)c2C(=O)O1 | - | 80 µM |
| CN(C)C(=O)COC(=O)Cc1ccc(OC(=O)c2ccc(N=C(N)N)cc2)cc1.COS(=O)(=O)O | MTT | >500 µg/mL |
| CCC#CCCCCCCCCN1C(=O)O[C@]2(C)[C@@H](CC)OC(=O)[C@H](C)C(=O)[C@H](C)[C@@H](O[C@@H]3O[C@H](C)C[C@H](N(C)C)[C@H]3O)[C@](C)(OC)C[C@@H](C)C(=O)[C@H](C)[C@@H]12 | - | 8.71 µM |
| CC1(C)C[C@H]2[C@@H](OC(=O)[C@H](O)[C@@H](NC(=O)c3ccccc3)c3ccccc3)C3=C(C[C@](C)(O)[C@H]2C1)C(=O)OC3 | - | 135.8 µg/mL |
| Nc1nc2c(sc(=O)n2C/C=C\CO)c(=O)[nH]1 | - | >400 µM |
| CC(C)(C)[Si](C)(C)O[C@H]1[C@H](CO)O[C@@H](n2ccc(N)nc2=O)C1(F)F | - | >100 µM |
| COC(=O)c1ccccc1NC(=O)C(=O)/C=C(\O)c1ccccc1NC1=CC(=O)C(=O)c2ccccc21 | neutral red | >50 µM |
| CCCCCCCCCC(=O)NC(C)(C)C(=O)N1C[C@@H](O)C[C@H]1C(=O)N[C@@H](CC(C)C)C(=O)N[C@H](C(=O)N[C@@H](CCC(N)=O)C(=O)N[C@@H](CC(C)C)C(=O)OC)C(C)C | - | 59 µM |
| CCCCc1nc(Cl)c(C2C(C(=O)Nc3ccccc3F)=C(C)NC(C)=C2C(=O)Nc2ccccc2F)[nH]1 | MTT | >10 µg/mL |
| CCc1nc2ccccc2n1CCCCN1CCOCC1 | luminescence | >100 µM |
| CC(=O)CSc1nnc(Cn2c(-c3cccs3)nc(-c3ccccc3)c2-c2ccccc2)n1C | neutral red | >50 µM |
| CC[C@H]1OC(=O)[C@H](C)C(=O)[C@H](C)[C@@H](O[C@@H]2O[C@H](C)C[C@H](N(C)C)[C@H]2O)[C@](C)(OC)C[C@@H](C)C(=O)[C@H](C)[C@H]2N(C/C=C/Cc3ccccc3)C(=O)O[C@]12C | - | 8.19 µM |
| C[C@H]1C/C=C/C(O)C/C=C/C(=O)Cc2cccc(O)c2C(=O)O1 | - | 20 µM |
| CC(=O)OCCOCn1c(-c2ccccc2)c(N)c(C#N)c1-c1ccccc1 | - | >300 µM |
| CN1CCN(c2cccc(NCc3ccc(-c4ccccc4)cc3)c2)CC1 | - | 1 µg/mL |
| O=C(c1ccccc1)c1nc2ccccc2o1 | - | 125 µg/mL |
| CCc1nc2ccccc2n1CCCCNc1ccc(C)cc1 | luminescence | 39 µM |
| c1ccc(-c2ccc(CNc3ccccc3-n3ccnc3)cc2)cc1 | - | 8 µg/mL |
| CC1(C)C[C@@H]2[C@@H](OC(=O)[C@H](O)[C@@H](NC(=O)c3ccccc3)c3ccccc3)C3=C(C[C@](C)(O)[C@H]2C1)C(=O)OC3 | - | 414.8 µg/mL |
| O=C(N/N=C/c1ccccc1F)c1ccncc1 | - | 8 µg/mL |
| COc1ccc2nc(Cl)c(/C=C/C(=O)c3sccc3C)cc2c1 | MTS | 82.9 µM |
| CCCCC/C=C/C/C=C/CCCCCCCC(=O)NC(C)(C)C(=O)N1C[C@@H](O)C[C@H]1C(=O)N[C@@H](CC(C)C)C(=O)N[C@H](C(=O)N[C@@H](CCC(N)=O)C(=O)N[C@@H](CC(C)C)C(=O)OC)C(C)C | - | 28 µM |
| CCc1nc2ccc(C)cc2n1CCCCNc1cccc(Cl)c1 | luminescence | 16 µM |
| COc1ccc2nc(Cl)c(/C=C/C(=O)c3ccsc3)cc2c1 | MTS | 9.1 µM |
| CCc1nc2ccc(C)cc2n1CCCCSc1ccc(OC)cc1 | luminescence | 20 µM |
| CC[C@H]1OC(=O)[C@H](C)C(=O)[C@H](C)[C@@H](O[C@@H]2O[C@H](C)C[C@H](N(C)C)[C@H]2O)[C@](C)(OC)C[C@@H](C)C(=O)[C@H](C)[C@H]2N(CCCCc3ccc(N)cc3)C(=O)O[C@]12C | - | 26.04 µM |
| Nc1ccn([C@@H]2CC[C@H](CO)O2)c(=O)n1 | - | >125 µM |
| O=C(Nc1ccccc1F)c1cccc2[nH]c(-c3ccccn3)nc12 | - | 15.33 µg/mL |
| C[C@H]1C[C@H]2O[C@@H]2CC/C=C/C(=O)Cc2cc(O)cc(O)c2C(=O)O1 | - | 3 µM |
| CCOC(=O)c1c(Cl)c(-c2ccccc2)n(COCCO)c1C | - | 111 µM |
| Oc1ccccc1Cc1nc2cc(Cl)ccc2o1 | - | 62 µg/mL |
| Nc1ncnc2c1ncn2[C@@H]1C[C@H](COP(=O)(O)O)[C@@H](O)[C@H]1O | - | >400 µg/mL |
| O=c1[nH]cnc2c1ncn2O[C@@H]1CO[C@@H](CO)O1 | - | >100 µg/mL |
| CC(=O)OCCOCn1c(-c2ccccc2)c(C#N)c([N+](=O)[O-])c1-c1ccccc1 | - | >300 µM |
| Nc1ncnc2c1ncn2O[C@H]1CS[C@@H](CO)O1 | - | >100 µg/mL |
| Nc1ncnc2c1ncn2C1CC(COP(=O)(O)O)[C@@H](O)[C@H]1O | - | 10 µg/mL |
| O=C(CN1c2c(-c3ccccc3)n[nH]c2-c2ccccc2S1(=O)=O)N/N=C/c1cccc(Cl)c1 | - | 13.2 µM |
| Cn1cc(C(=O)c2ccc(F)cc2)cc1/C=C/C(=O)O | - | 15 µg/mL |
| Nc1nc2c(ncn2C[C@H]2CC[C@@H](P(=O)(O)O)O2)c(=O)[nH]1 | - | >10 µg/mL |
| CC[C@H]1OC(=O)[C@H](C)C(=O)[C@H](C)[C@@H](O[C@@H]2O[C@H](C)C[C@H](N(C)C)[C@H]2O)[C@](C)(OC)C[C@@H](C)C(=O)[C@H](C)[C@H]2N(NCCCc3ccnc4ccccc34)C(=O)O[C@]12C | - | 26.34 µM |
| O=C(CN1c2c(-c3ccccc3)n[nH]c2-c2ccccc2S1(=O)=O)N/N=C/c1ccc(Cl)cc1Cl | - | 19.1 µM |
| Cc1cn([C@H]2O[C@@H](CO)[C@H](O[Si](C)(C)C(C)(C)C)C2(F)F)c(=O)[nH]c1=O | - | >100 µM |
| Clc1ccc(CNc2ccccc2N2CCOCC2)cc1 | - | 4 µg/mL |
| Cn1cc(C(=O)c2ccc(-n3ccnc3)cc2)cc1/C=C/C(=O)O | - | 125 µg/mL |
| O=C(Nc1cccc(N2CCSCC2)c1)c1ccc(Cl)cc1 | - | 32 µg/mL |
| O=[N+]([O-])c1cc(-c2ccccc2)n(COCCO)c1-c1ccccc1 | - | 46 µM |
| Clc1ccc(CNc2cccc(N3CCSCC3)c2)cc1 | - | 8 µg/mL |
| O=C(CN1c2c(-c3ccccc3)n[nH]c2-c2ccccc2S1(=O)=O)N/N=C/c1ccccc1[N+](=O)[O-] | - | 59.3 µM |
| Nc1ncnc2c1ncn2O[C@H]1CO[C@@H](CO)O1 | - | >100 µg/mL |
| N#Cc1c(N)c(-c2ccccc2)n(COCCO)c1-c1ccccc1 | - | >300 µM |
| Cn1cc(C(=O)c2ccc([N+](=O)[O-])cc2)cc1/C=C/C(=O)NO | - | 15 µg/mL |
| C/C(=N\NC(=O)c1ccncc1)C(F)(F)F | - | 58 µg/mL |
| CC1(C)C[C@H]2[C@H](OC(=O)[C@H](O)[C@@H](NC(=O)c3ccccc3)c3ccccc3)C34COC(=O)C3(C4)C[C@](C)(O)[C@H]2C1 | - | 381.8 µg/mL |
| c1ccc(-c2ccc(CNc3ccccc3N3CCSCC3)cc2)cc1 | - | 8 µg/mL |
| COc1ccc2nc(Cl)c(/C=C/C(=O)c3cc(Cl)sc3Cl)cc2c1 | MTS | 4.6 µM |
| Cc1cc(NCCCCCCCCNc2cc(C)nc3cc(N(C)C)ccc23)c2ccc(N(C)C)cc2n1 | MTT | >500 µg/mL |
| C#Cc1cn([C@H]2C[C@H](O)[C@@H](CO)O2)c(=O)[nH]c1=O | - | 1.6 µM |
| Cn1cc(C(=O)c2ccc([N+](=O)[O-])cc2)cc1/C=C/C(=O)O | - | 15 µg/mL |
| O=C(Nc1cccc(O)c1)c1cccc2[nH]c(-c3ccncc3)nc12 | - | 5.9 µg/mL |
| CCc1nc2ccc(C)cc2n1CCCNc1ccc(C)cc1C | luminescence | 14 µM |
| Cc1ccc2nc(Cl)c(/C=C/C(=O)c3ccc[nH]3)cc2c1 | MTS | 11.6 µM |
| Cn1cc(C(=O)c2ccccc2)cc1/C=C/C(=O)O | - | 250 µg/mL |
| Cc1nonc1NC(=O)CSc1nc(C23CC4CC(CC(C4)C2)C3)nc2ccccc12 | neutral red | >50 µM |
| CCCCCCCCCCCCCCCCO[C@H]1N([C@H]2C[C@H](N=[N+]=[N-])[C@@H](CO)O2)C(=O)NC(=O)[C@]1(C)Br | MTT | >500 µg/mL |
| Nc1nc2c(ncn2OC2COC(CO)O2)c(=O)[nH]1 | - | >100 µg/mL |
| Nc1nc2c(ncn2CC2CSC(P(=O)(O)O)O2)c(=O)[nH]1 | - | >100 µg/mL |
| Cc1ccc2nc(Cl)c(/C=C/C(=O)c3cc(C)oc3C)cc2c1 | MTS | >100 µM |
| O=C(Nc1ccccc1F)c1cccc2[nH]c(-c3ccncc3)nc12 | - | 12.3 µg/mL |
| O=C(Nc1ccc(N2CCSCC2)cc1)c1ccc(-c2ccccc2)cc1 | - | 64 µg/mL |
| Oc1ccccc1Cc1nc2cc(Cl)ccc2s1 | - | 62 µg/mL |
| CC1=C2CC(C)(C)C[C@H]2[C@H](OC(=O)[C@H](O)[C@@H](NC(=O)c2ccccc2)c2ccccc2)C2=C(C1)C(=O)OC2 | - | 212.7 µg/mL |
| COc1ccc(/C=N/NC(=O)CN2c3c(-c4ccccc4)n[nH]c3-c3ccccc3S2(=O)=O)cc1 | - | 66 µM |
| CCc1nc2ccccc2n1CCCNc1ccc(C)c(Br)c1 | luminescence | 11 µM |
| Oc1ccccc1Cc1nc2ccccc2o1 | - | 62 µg/mL |
| Cc1cn([C@@H]2O[C@@H](CO)[C@H](O[Si](C)(C)C(C)(C)C)C2(F)F)c(=O)[nH]c1=O | - | >100 µM |
| COC(=O)[C@H](CC(C)C)NC(=O)[C@H](CCC(N)=O)NC(=O)[C@@H](NC(=O)[C@H](CC(C)C)NC(=O)[C@@H]1C[C@H](O)CN1C(=O)C(C)(C)NC(=O)CCCCCCCCCCCCCCCO)C(C)C | - | >43 µM |
| Fc1cccc2nc3c(cnc4c3cnn4-c3ccccc3)c(Cl)c12 | MTT | 600 µM |
| CCCCc1nc(Cl)c(C2C(C(=O)Nc3ccc([N+](=O)[O-])cc3)=C(C)NC(C)=C2C(=O)Nc2ccc([N+](=O)[O-])cc2)[nH]1 | MTT | >10 µg/mL |
| Cc1ccccc1NC(=O)c1cccc2[nH]c(-c3ccncc3)nc12 | - | 27.8 µg/mL |
| COc1ncnc2c1ncn2O[C@H]1CS[C@@H](CO)O1 | - | >100 µg/mL |

Again, the opening 11 rows:

structure	read by	value
COc1ncnc2c1ncn2O[C@H]1CO[C@@H](CO)O1	-	>100 µg/mL
CN(C)c1ccc(/C=N/NC(=O)CN2c3c(-c4ccccc4)n[nH]c3-c3ccccc3S2(=O)=O)cc1	-	14.6 µM
CC1(C)C[C@H]2[C@H](OC(=O)[C@H](O)[C@@H](NC(=O)c3ccccc3)c3ccccc3)C3=C(COC3=O)C[C@](C)(O)[C@H]2C1	-	107.9 µg/mL
C[C@H]1C[C@H]2O[C@@H]2C[C@H](O)/C=C/C(=O)Cc2c(Cl)c(O)cc(O)c2C(=O)O1	-	80 µM
CN(C)C(=O)COC(=O)Cc1ccc(OC(=O)c2ccc(N=C(N)N)cc2)cc1.COS(=O)(=O)O	MTT	>500 µg/mL
CCC#CCCCCCCCCN1C(=O)O[C@]2(C)[C@@H](CC)OC(=O)[C@H](C)C(=O)[C@H](C)[C@@H](O[C@@H]3O[C@H](C)C[C@H](N(C)C)[C@H]3O)[C@](C)(OC)C[C@@H](C)C(=O)[C@H](C)[C@@H]12	-	8.71 µM
CC1(C)C[C@H]2[C@@H](OC(=O)[C@H](O)[C@@H](NC(=O)c3ccccc3)c3ccccc3)C3=C(C[C@](C)(O)[C@H]2C1)C(=O)OC3	-	135.8 µg/mL
Nc1nc2c(sc(=O)n2C/C=C\CO)c(=O)[nH]1	-	>400 µM
CC(C)(C)[Si](C)(C)O[C@H]1[C@H](CO)O[C@@H](n2ccc(N)nc2=O)C1(F)F	-	>100 µM
COC(=O)c1ccccc1NC(=O)C(=O)/C=C(\O)c1ccccc1NC1=CC(=O)C(=O)c2ccccc21	neutral red	>50 µM
CCCCCCCCCC(=O)NC(C)(C)C(=O)N1C[C@@H](O)C[C@H]1C(=O)N[C@@H](CC(C)C)C(=O)N[C@H](C(=O)N[C@@H](CCC(N)=O)C(=O)N[C@@H](CC(C)C)C(=O)OC)C(C)C	-	59 µM

CCn is the concentration with n% toxicity to the cells. Blank or dashed fields: not listed here.